Test system: MRC-5 cells
Assay: MTT cytotoxicity assay on MRC-5 cells
Type: cell-based, human
Conditions: TD90 and MBC ratio
Protocol: We first determined the minimal inhibitory concentration (MIC), i.e., the lowest compound dose (µM) arresting bacterial growth, and the minimal bactericidal concentration (MBC), i.e., the minimal dose (µM) of the compound required for an irreversible block, even after drug removal. Secondly, the derivatives having the most promising activities vs. MRSA were also tested on human MRC-5 cells, calculating their percentages of cytotoxicity by using the MTT assay. Cells were first incubated with each compound for 24 h, then the derivative was removed, and the cells were overlaid with MTT for an additional 3 h. After that time, DMSO replaced the MTT solution, and after 10 min the absorbance was measured at 570 nm. The percentage of cytotoxicity was defined by the formula [100 − (sample OD/untreated cells OD) × 100]. Table 2 reports TD90, defined as the compound concentration (µM) that reduced viability of MRC-5 cells by 90%. Moreover, we reported the therapeutic index (TI), as TD90 and MBC ratio.
Compounds showing an antibacterial activity at a concentration lower than 10 μg/mL were serially diluted in DMEM and tested for cytotoxicity on MRC-5 cells by the MTT assay (Sigma, St Louis, MO, USA). Protocol was the same previously reported.

Row | Compound | TI (therapeutic index)
1 | NC(=O)c1c(F)ccc(OCCC2COc3cc4ccccc4cc3O2)c1F (stereo not drawn) [Compound 5, 3-[2-(2,3-dihydronaphtho[2,3-b][1,4]dioxin-2-yl)ethoxy]-2,6-difluorobenzamide] | 360
2 | NC(=O)c1c(F)ccc(OCC2COc3cc4c(cc3O2)CCCC4)c1F (stereo not drawn) [Compound 7] | 15.0
3 | CCc1nc(-c2ccc3c(c2)OC(COc2ccc(F)c(C(N)=O)c2F)CO3)no1 (stereo not drawn) [VII, reference compound] | >320
4 | NC(=O)c1c(F)ccc(OCC2COc3cc4ccccc4cc3O2)c1F (stereo not drawn) [Compound 4, 3-[(2,3-dihydronaphtho[2,3-b][1,4]dioxin-2-yl)methoxy]-2,6-difluorobenzamide] | >320
5 | NC(=O)c1c(F)ccc(OCCC2COc3ccccc3O2)c1F (stereo not drawn) [II, reference compound] | 15.2
6 | CCc1nc(-c2ccc3c(c2)OC(CCOc2ccc(F)c(C(N)=O)c2F)CO3)no1 (stereo not drawn) [Compound 2] | 3090
7 | CSc1nc(-c2ccc3c(c2)OC(CCOc2ccc(F)c(C(N)=O)c2F)CO3)no1 (stereo not drawn) [Compound 3, 3-[2-(7-(5-methylthio-1,2,4-oxadiazol-3-yl)-1,4-benzodioxan-2-yl)ethyloxy]-2,6-difluorobenzamide] | 3034
8 | Cc1nc(-c2ccc3c(c2)OC(CCOc2ccc(F)c(C(N)=O)c2F)CO3)no1 (stereo not drawn) [Compound 1, 3-[2-(7-(5-methyl-1,2,4-oxadiazol-3-yl)-1,4-benzodioxan-2-yl)ethyloxy]-2,6-difluorobenzamide] | >1591
9 | NC(=O)c1c(F)ccc(OCCC2COc3cc4c(cc3O2)CCCC4)c1F (stereo not drawn) [Compound 8, 3-[2-(2,3,6,7,8,9-hexahydronaphtho[2,3-b][1,4]dioxin-2-yl)ethoxy]-2,6-difluorobenzamide] | 8200
10 | CSc1nc(-c2ccc3c(c2)OC(COc2ccc(F)c(C(N)=O)c2F)CO3)no1 (stereo not drawn) [V, reference compound] | 1231
11 | NC(=O)c1c(F)ccc(OCCCOc2ccc3ccccc3c2)c1F [Compound 6] | >160
12 | Cc1nc(-c2ccc3c(c2)OC(COc2ccc(F)c(C(N)=O)c2F)CO3)no1 (stereo not drawn) [VI, reference compound] | >320
